The test has as its target laminin (mouse EHS laminin) (mouse). Description: SPR. In general terms: In SPR one partner is held on a chip, and binding of the other changes the refractive index at the surface.

As a reminder, the Kd is the free concentration of one partner at which half of the binding sites on the other are occupied at equilibrium, for simple one-to-one binding. The low end stands for a tighter complex, the high end for a looser complex. As a reminder, the koff is the first-order rate constant of dissociation. Low values mean a long-lived complex, high ones a short-lived complex. Usually kon stands for the rate constant with which the complex forms.

Substance “BslA(260–652), recombinant truncated Bacillus anthracis S-layer protein A (domain or fragment)” returned a Kd of 3.17 nM, a dissociation rate constant (koff) of 0.000555 s⁻¹ and an association rate constant (kon) of 175000 M⁻¹ s⁻¹.

These data come from publication PMC4981971, “Bacillus anthracis S-layer protein BslA binds to extracellular matrix by interacting with laminin” (2016).
